Measured values: PMC7229044, “Triterpenoid acids isolated from Schinus terebinthifolia fruits reduce Staphylococcus aureus virulence and abate dermonecrosis” (Scientific Reports, 2020)

Key:
Assay type in all cases: cell-based, Staphylococcus aureus
Conditions in all cases: IC50 for HaCaT cytotoxicity divided by IC50 for agr activity
[1] = test system: agr activity, AH430 (agr II)
Procedure: (§1) S. aureus agr reporter strains AH1677 (agr I), AH430 (agr II), AH1747 (agr III) and AH1872 (agr IV) were grown overnight in TSB supplemented with chloramphenicol at 37 °C while shaking at 200 rpm. Cultures of S. aureus were standardized by optical density (OD600nm) matching to a 0.5 McFarland standard to reach a final inoculum density in the wells of 5 × 10^5 CFU mL^−1 in TSB, supplemented with 10 μg/mL chloramphenicol. […] Black sided, 96-well, clear bottom, tissue-culture treated plates (Costar 3603) with final well volume of 200 μL were used for all agr inhibition assays. Plates were incubated in a humidified chamber at 37 °C while shaking at 260 rpm. After 24 hours, plates were removed and OD600 and fluorescence were measured by plate reader at an excitation of 493 nm and emission of 535 nm. All tests were performed in triplicate and repeated using a new stock of bacteria on a separate day.

[2] = test system: agr activity, AH1747 (agr III)
Procedure: as §1

[3] = test system: agr activity, AH1872 (agr IV)
Procedure: as §1

[4] = test system: agr activity, AH1677 (agr I)
Procedure: as §1

SMILES	Therapeutic Index [1]	Therapeutic Index [2]	Therapeutic Index [3]	Therapeutic Index [4]
CC(=CCCC(C)C1CCC2(C)C3=CCC4C(C)(C)C(O)CCC4(C)C3CCC12C)C(=O)O (stereo not drawn) [Compound 3, 3α-hydroxytirucalla-7,24Z-dien-26-oic acid]	8	8	8	18
CC1(C)CCC2(C(=O)O)CCC3(C)C(=CCC4C5(C)CCC(=O)C(C)(C)C5CCC43C)C2C1 (stereo not drawn) [Compound 1, 3-oxo-olean-12-en-28-oic acid]	35	2	4	8
CC(=CCCC(C)C1CCC2(C)C3=CCC4C(C)(C)C(=O)CCC4(C)C3CCC12C)C(=O)O (stereo not drawn) [Compound 2, 3-oxotirucalla-7,24Z-dien-26-oic acid]	35	8	8	18
